Measurements as given in ChEMBL document CHEMBL1129785, “Preparation and structure-activity relationship of novel P1/P1'-substituted cyclic urea-based human immunodeficiency virus type-1 protease inhibitors” (J Med Chem, 1996).

Biological target: Human immunodeficiency virus type 1 protease (Human immunodeficiency virus 1, UniProt Q72874)
Experiment: Inhibitory activity against HIV protease

CC(C)[C@@H]1[C@H](O)[C@@H](O)[C@@H](C(C)C)N(CC2CC2)C(=O)N1CC1CC1
Ki: 250 nM
